Compound potency records, mixed from different reports. Data source: NIAID ChemDB in PubChem.

All rows: tests in culture; organism: Aspergillus flavus; measure: zone

Blank or dashed fields: not listed here. Zones are inhibition diameters on agar. Rows are shuffled and stem from different studies.

smiles	strain or isolate	method	dose	value
Cc1ccc2[nH]c3nc(-n4nc(-c5ccccc5)c5ccccc5c4=O)c4ccccc4c3c2c1	MTCC-1973	agar diffusion / visual reading	25 µg/mL	8 mm
CSc1ccc(C2=NN(c3ccccc3)C(c3cn(-c4ccccc4)nc3-c3ccc(Br)cc3)C2)cc1	-	-	500 µg/mL	3 mm
COc1ccccc1/C=C1\SC(c2ccccc2OC)N(NC(=O)CNC(=O)c2ccncc2)C1=O	-	agar diffusion	100 µg/mL	13.8 mm
O=C(NN1C(=O)CSC1C1C(c2ccccc2)=Nc2ccccc21)N1c2ccccc2C=Cc2ccccc21	MTCC-1973	agar diffusion	750 µg/mL	4 mm
Cn1c(=O)c(-c2[nH][nH]c(=O)c2N=Nc2ccc(Br)cc2)c(O)c2ccccc21	ATCC 28542	agar diffusion	1 mg/mL	11 mm
O=C(CNC(=O)c1ccncc1)NN1C(=O)CSC1c1ccc(Cl)cc1	-	agar diffusion	50 µg/mL	17 mm
COc1ccc(/C=c2\c(=O)[nH][nH]\c2=C2/C(=O)c3ccccc3N(C)C2=O)cc1	ATCC 28542	agar diffusion	1 mg/mL	10 mm
COc1ccc(-c2nn(-c3ccccc3)cc2C2CC(c3ccc(SC)cc3)=NN2c2ccccc2)cc1	-	-	500 µg/mL	0 mm
Cc1cc(=O)n(-c2ccc(N=Nc3c(-c4c(O)c5ccccc5n(C)c4=O)[nH][nH]c3=O)cc2)n1C	ATCC 28542	agar diffusion	1 mg/mL	11 mm
COc1ccc(-c2nn(-c3ccccc3)cc2C2CC(c3ccc(-c4ccccc4)cc3)=NN2c2ccccc2)cc1	-	-	500 µg/mL	0 mm
O=C(CNC(=O)c1ccncc1)NN1C(=O)CSC1c1cccc(Br)c1	-	agar diffusion	50 µg/mL	15 mm
O=c1c2ccccc2c(-c2ccccc2)nn1-c1nc2[nH]c3ccc(Cl)cc3c2c2ccccc12	MTCC-1973	agar diffusion / visual reading	50 µg/mL	6 mm
O=C(CNC(=O)c1ccncc1)NN1C(=O)/C(=C/c2ccccc2Br)SC1c1ccccc1Br	-	agar diffusion	100 µg/mL	15.6 mm
Cn1c(=O)c(-c2[nH][nH]c(=O)c2/C=N/c2ccccn2)c(O)c2ccccc21	ATCC 28542	agar diffusion	1 mg/mL	21 mm
OC(Cn1cncn1)(Cn1cncn1)c1ccc(F)cc1F	-	-	30 µg/mL	99 mm
O=C(CNC(=O)c1ccncc1)NN1C(=O)CSC1c1ccc([N+](=O)[O-])cc1	-	agar diffusion	100 µg/mL	25 mm
O=C(NN=CC1C(c2ccccc2)=Nc2ccccc21)N1c2ccccc2C=Cc2ccccc21	MTCC-1973	agar diffusion	750 µg/mL	10 mm
Cn1c(=O)c(-c2[nH][nH]c(=O)c2N=Nc2ccc(N)cc2)c(O)c2ccccc21	ATCC 28542	agar diffusion	1 mg/mL	10 mm
OC(Cn1cncn1)(Cn1cncn1)c1ccc(F)cc1F	MTCC-1973	agar diffusion / visual reading	3.125 µg/mL	12 mm
CSc1ccc(C2=NN(c3ccccc3)C(c3cn(-c4ccccc4)nc3-c3ccc(Cl)cc3)C2)cc1	-	-	500 µg/mL	2 mm
COc1ccc2nc3n4c(c5ccccc5c-3c2c1)NN=C(c1ccc(Cl)cc1)C4	MTCC-1973	agar diffusion / visual reading	3.125 µg/mL	8 mm
O=C(CNC(=O)c1ccncc1)NN1C(=O)/C(=C/c2ccccc2Cl)SC1c1ccccc1Cl	-	agar diffusion	50 µg/mL	16.1 mm
CSc1ccc(C2=NN(c3ccccc3)C(c3cn(-c4ccccc4)nc3-c3ccccc3)C2)cc1	-	-	1000 µg/mL	0 mm
Cc1ccc2c(c1)C(C1SCC(=O)N1NC(=O)N1c3ccccc3C=Cc3ccccc31)C(c1ccccc1)=N2	MTCC-1973	agar diffusion	750 µg/mL	2 mm
Cc1cc(=O)oc2c(C=Nc3cccc4cccc(N=Cc5c(O)ccc6c(C)cc(=O)oc56)c34)c(O)ccc12	MTCC 1883	-	500 µg/mL	25 mm

4 of the rows above, restated:

COc1ccc(-c2nn(-c3ccccc3)cc2C2CC(c3ccc(SC)cc3)=NN2c2ccccc2)cc1 ; dose: 500 µg/mL ; value: 0 mm
O=C(NN=CC1C(c2ccccc2)=Nc2ccccc21)N1c2ccccc2C=Cc2ccccc21 ; strain or isolate: MTCC-1973 ; method: agar diffusion ; dose: 750 µg/mL ; value: 10 mm
O=C(CNC(=O)c1ccncc1)NN1C(=O)CSC1c1ccc(Cl)cc1 ; method: agar diffusion ; dose: 50 µg/mL ; value: 17 mm
O=C(CNC(=O)c1ccncc1)NN1C(=O)CSC1c1ccc([N+](=O)[O-])cc1 ; method: agar diffusion ; dose: 100 µg/mL ; value: 25 mm